Assay: general procedure: Fmoc solid-phase peptide synthesis; Fmoc-Rink-MBHA resin (0.71 mmol/g); DIC/Oxima
Conditions: whole synthesis, 220 nm

Substance	final HPLC purity
LYVAKNKYGLGKL-NH2	>99%
TTLRPKLKSK-NH2	>99%

— PMC11697409 (Biotechnology Reports, 2024)
